## Sequence variants of PSTVd loop 6 after infection

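Three N. benthamiana plants were inoculated with the whole mutant pool. Samples came from the inoculated region at 5 days, the leaf margin at 10 and upper systemic leaves at 12.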

The pool varies loop 6 of the PSTVd intermediate strain in the pattern UNNNCGNNNG; wild type is UGACCGCGAG (upper and lower strand joined, each 5' to 3', the first 5 letters being the upper strand, closing pairs included).

Numbers give reads per thousand; 0 = not seen among the reads, higher = more abundant.
Each value is the mean of three plants.
"Pool" is the share in the plasmid pool used as inoculum, on the same scale.
The inoculated region was read from the minus strand, the other sites from the plus strand.
IR is the inoculated region, LM the leaf margin, Sys the systemic leaves.
Sequences that differ at fixed positions probably stem from PCR or sequencing errors, and defective variants can be carried along by functional ones.
With 36,220-57,551 reads a sample, very low values are single reads.
For reference, wild type rose from 20.7 per thousand in the pool to 195, 198, 203 (inoculated region), 629, 591, 734 (leaf margin) and 942, 870, 868 (systemic leaves).

{"sequence": "UAAACGAGGG", "pool": "0.144", "IR": 0.0781, "LM": 0.0155, "Sys": 0}
{"sequence": "UAAGCGUUAG", "pool": "0.445", "IR": 0.572, "LM": 0.101, "Sys": 0}
{"sequence": "UACACGAUUG", "pool": "0.144", "IR": 0.107, "LM": 0, "Sys": 0}
{"sequence": "UAGACGUCGG", "pool": "0.288", "IR": 0.101, "LM": 0, "Sys": 0}
{"sequence": "UAGUCGCCGG", "pool": "0.0915", "IR": 0.0836, "LM": 0, "Sys": 0}
{"sequence": "UAUACGCCAG", "pool": "0.340", "IR": 0.0719, "LM": 0.0184, "Sys": 0.0264}
{"sequence": "UAUCCGCCGG", "pool": "0.222", "IR": 0.0891, "LM": 0.00920, "Sys": 0}
{"sequence": "UCCCCGACAG", "pool": "0.405", "IR": 0.105, "LM": 0, "Sys": 0}
{"sequence": "UCGCCGGAUG", "pool": "0.288", "IR": 0.113, "LM": 0.0184, "Sys": 0}
{"sequence": "UCUCCGGUAG", "pool": "0.235", "IR": 0.114, "LM": 0, "Sys": 0}
{"sequence": "UCUGCGUGCG", "pool": "0.222", "IR": 0.107, "LM": 0, "Sys": 0}
{"sequence": "UCUUCGUUCG", "pool": "0.301", "IR": 0.137, "LM": 0.00920, "Sys": 0}
{"sequence": "UGAACGUCCG", "pool": "0.144", "IR": 0.154, "LM": 0.00773, "Sys": 0}
{"sequence": "UGACCGCCUG", "pool": "0.314", "IR": 0.213, "LM": 10.2, "Sys": 0.196}
{"sequence": "UGACCGUUAU", "pool": "0.0131", "IR": 0, "LM": 0, "Sys": 0.0473}
{"sequence": "UGCUCGCUAG", "pool": "0.105", "IR": 0.0951, "LM": 0.0169, "Sys": 0}
{"sequence": "UGGGCGUUCG", "pool": "0.170", "IR": 0.112, "LM": 0.0276, "Sys": 0}
{"sequence": "UGUCCGUUUG", "pool": "0.431", "IR": 0.107, "LM": 0.00773, "Sys": 0}
{"sequence": "UGUUCGCUCG", "pool": "0.261", "IR": 0.0903, "LM": 0, "Sys": 0}
{"sequence": "UUAGCGGAAG", "pool": "0.118", "IR": 0.520, "LM": 0.0966, "Sys": 0}
{"sequence": "UUCUCGUACG", "pool": "0.209", "IR": 0.0699, "LM": 0.00773, "Sys": 0}
{"sequence": "UUUCCGGACG", "pool": "0.222", "IR": 0.118, "LM": 0.0387, "Sys": 0}

A selection of 3 entries from above:

UUAGCGGAAG (pool 0.118): IR 0.520; LM 0.0966; Sys 0.
UAGUCGCCGG (pool 0.0915): IR 0.0836; LM 0; Sys 0.
UGUCCGUUUG (pool 0.431): IR 0.107; LM 0.00773; Sys 0.

Source: Wu et al. 2024 (doi:10.1371/journal.ppat.1012142), supplementary data.